The values below come from article PMC3048900.

The data set concerns the target Nterm1 (UniProt position 344, SIQSRGLFGAI). The experiment in a line: NMR. As to conditions: DPC micelle-bound helical hairpin.

Take “Hemagglutinin HA2 fusion peptide HAfp23 (Influenza A virus (serotype H1; strain not stated))”: the pKa is listed as 8.73±0.07.

By pKa is commonly meant the negative logarithm of the acid dissociation constant. A lower pKa goes with a group that gives up its proton readily.
